Values quoted from earlier work as cited in patent US20140234375A1, “Compositions and Methods for Eliciting an Immune Response to Escape Mutants of Targeted Therapies” (priority 2005, published 2014).

Test system: HIV-1 variants
Conditions: HIV-1 variants under nevirapine therapy

Cc1ccnc2c1NC(=O)c1cccnc1N2C1CC1 [Nevirapine, nevirapine]
time of therapy after which decreased susceptibility is evident: 1 week
